Results of unrelated studies side by side (data: NIAID ChemDB).

Common to all: enzyme or target tests; species: HIV-1; target: Protease; endpoint: IC50

Neighbouring rows are from separate reports.

smiles	method	result
C=CCc1ccc(O)c(-c2ccc(OC)c(CC=C)c2)c1	FRET	1000 µM
COC(=O)[C@H](CC(C)C)NC(=O)C[C@@H]1CC[C@@H](O)[C@@H]1NC(=O)[C@H](Cc1ccccc1)NC(=O)OC(C)(C)C	absorbance	20 µM
CCOC(=O)[C@]12CCC(C)(C)CC1C1=CCC3[C@@]4(C)CC[C@H](OC(=O)CC(C)(C)C(=O)O)[C@@](C)(COC(=O)CC(C)(C)C(=O)O)C4CC[C@@]3(C)[C@]1(C)CC2	substrate cleavage / fluorescence	17.2 µM
COc1ccc2c(c1)OC1(CCN2)CCN(Cc2ccccc2)CC1	absorbance	>10 µM
CC1CCC2C(C)(C)C(O)CCC2(C)C12Cc1c(cc3c(c1O)C(=O)NC3=O)O2	substrate cleavage / HPLC	375 µM
COc1ccc2c(c1)OC1(CCN(Cc3ccccc3)CC1)C/C2=N\O	absorbance	>10 µM
C[C@@H](O)[C@H](NC(=O)c1cc(=O)c2ccccc2[nH]1)C(=O)N[C@@H](Cc1ccccc1)[C@H](O)[C@@H](O)[C@H](Cc1ccccc1)NC(=O)COc1ccccc1	substrate cleavage	0.0032 µM
C=CCc1cc(-c2cc(CC(O)CO)ccc2O)ccc1O	FRET	1000 µM
COC(=O)[C@]12CCC(C)(C)C[C@H]1C1=CC[C@@H]3[C@@]4(C)CC[C@H](O)C(C)(C)[C@@H]4CC[C@@]3(C)[C@]1(C)CC2	HPLC	20 µM
C[C@@H](O)[C@H](NC(=O)COc1cccc2ccccc12)C(=O)N[C@@H](Cc1ccccc1)[C@H](O)C(=O)N1CSC[C@H]1C(=O)NC(C)(C)C	-	~0.05 µM
CC1(C)CC[C@]2(C(=O)O)CC[C@]3(C)C(=CC[C@@H]4[C@@]5(C)C[C@@H](OC(=O)c6ccccc6)[C@H](OC(=O)c6ccccc6)C(C)(C)[C@@H]5CC[C@]43C)[C@@H]2C1	FRET	>1200 µg/mL
COC(=O)N[C@H](C(=O)N[C@@H](Cc1ccccc1)[C@@H](O)CN(CC(C)C)NC(=O)[C@@H](NC(=O)OC)C(C)C)C(C)C	substrate cleavage	0.041 µM
CC(=O)O[C@@H]1C[C@]2(C)[C@H]3CC=C4[C@@H]5CC(C)(C)CC[C@]5(C(=O)O)CC[C@@]4(C)[C@]3(C)CC[C@H]2C(C)(C)[C@H]1OC(C)=O	FRET	>1200 µg/mL
CC(C)c1nc(COC(=O)N[C@H](C(=O)N[C@@H](Cc2ccccc2)[C@H](O)CN2CCN(Cc3nc4ccccc4[nH]3)C[C@H]2C(=O)NC(C)(C)C)C(C)C)cs1	substrate cleavage	<0.0005 µM
CC(C)[C@H](NC(=O)c1cc(=O)c2ccccc2o1)C(=O)N[C@@H](Cc1ccccc1)[C@H](O)[C@@H](O)[C@H](Cc1ccccc1)NC(=O)[C@@H](NC(=O)[C@H](Cc1c[nH]c2ccccc12)NC(=O)c1cc(=O)c2ccccc2o1)C(C)C	substrate cleavage	0.005 µM
CC(C)(CC(=O)O)CC(=O)O[C@@H]1C[C@]2(C)[C@H]3CC=C4[C@@H]5CC(C)(C)CC[C@]5(C(=O)OCc5ccccc5)CC[C@@]4(C)[C@]3(C)CC[C@H]2C(C)(C)[C@H]1O	FRET	>1200 µg/mL
c1ccc(COc2ccc3c(c2)NCCC2(CCN(Cc4ccccc4)CC2)O3)cc1	absorbance	>10 µM
CCOC(=O)[C@]12CCC(C)(C)CC1C1=CCC3[C@@]4(C)CC[C@H](OC(=O)CCCC(=O)O)[C@@](C)(COC(=O)CCCC(=O)O)C4CC[C@@]3(C)[C@]1(C)CC2	substrate cleavage / fluorescence	27.4 µM
C=CCc1ccc(O)c(-c2ccc(O)c(CC=C)c2)c1	FRET	120 µM
CC(C)(C)NC(=O)C1CCCN1C(=O)[C@@H](O)[C@H](Cc1ccccc1)NC(=O)[C@H](CC(N)=O)NC(=O)OC(C)(C)C	-	>5 µM
CC(C[C@@H](OC(=O)CC(C)(C)C(=O)O)[C@H](OC(=O)CC(C)(C)C(=O)O)C(C)(C)O)[C@@H]1CC[C@]2(C)C3=CCC4C(C)(C)C(OC(=O)CC(C)(C)C(=O)O)CC[C@]4(C)C3CC[C@@]12C	substrate cleavage / fluorescence	45.3 µM
COc1ccc(S(=O)(=O)N(CC(C)C)C[C@@H](O)[C@H](Cc2ccccc2)NC(=O)CN(CC(N)=O)[C@H]2CCOC2)cc1OC	substrate cleavage / FRET	>1 µM
C=CCOC(=O)N[C@H](C(=O)N[C@@H](Cc1ccccc1)[C@@H](O)CN(CC1CCCCC1)NC(=O)[C@@H](NC(=O)OCC=C)C(C)C)C(C)C	substrate cleavage	0.051 µM
CC[C@H](C)[C@H](NC(=O)[C@H](Cc1ccccc1)NC(C)=O)C(=O)N[C@@H](Cc1ccccc1)[C@H](O)[C@@H](O)[C@H](Cc1ccccc1)NC(=O)[C@H](CCC(=O)O)NC(=O)[C@H](Cc1ccccc1)NC(C)=O	substrate cleavage	0.012 µM
O=[N+]([O-])c1ccc2c(c1)/C(=N/O)CC1(CCN(Cc3ccccc3)CC1)O2	absorbance	>10 µM
CO[C@@H]([C@@H](CC(C)[C@@H]1CC[C@]2(C)C3=CCC4C(C)(C)C(OC(=O)CCC(=O)O)CC[C@]4(C)C3CC[C@@]12C)OC(C)(C)C)C(C)(C)O	substrate cleavage / fluorescence	70 µM
COC(=O)[C@]12CCC(C)(C)C[C@H]1C1=CC[C@@H]3[C@@]4(C)CC/C(=N\OC(=O)CCCCC(=O)OC[C@H]5O[C@@H](n6cc(C)c(=O)[nH]c6=O)C[C@@H]5N=[N+]=[N-])C(C)(C)[C@@H]4CC[C@@]3(C)[C@]1(C)CC2	HPLC	16 µM
COC(=O)[C@@H](NC(=O)C[C@@H]1CC[C@@H](O)[C@@H]1NC(=O)[C@H](C)NC(=O)OC(C)(C)C)C(C)C	absorbance	>10 µM
COC(=O)N[C@H](C(=O)N[C@@H](Cc1ccccc1)[C@@H](O)CN(Cc1ccc(OC)c(OC)c1OC)NC(=O)[C@@H](NC(=O)OC)C(C)C)C(C)C	substrate cleavage	0.034 µM
CC[C@H](C)[C@H](NC(=O)OC(C)(C)C)C(=O)N[C@H]1CC[C@@H](CC(=O)N[C@@H](CC(C)C)C(=O)OC)[C@@H]1O	absorbance	>10 µM
COC(=O)N[C@H](C(=O)N[C@@H](Cc1ccccc1)[C@@H](O)CN(Cc1ccc(C(F)(F)F)cc1)NC(=O)[C@@H](NC(=O)OC)C(C)C)C(C)C	substrate cleavage	0.033 µM
CCOC(=O)[C@]12CCC(C)(C)CC1C1=CCC3[C@@]4(C)CC[C@H](O)[C@@](C)(CO)C4CC[C@@]3(C)[C@]1(C)CC2	substrate cleavage / fluorescence	>100 µM
CC1(C)CC[C@]2(C(=O)OCc3ccccc3)CC[C@]3(C)C(=CC[C@@H]4[C@@]5(C)C[C@@H](OC(=O)c6ccccc6)[C@H](O)C(C)(C)[C@@H]5CC[C@]43C)[C@@H]2C1	FRET	>1200 µg/mL
CC(C[C@@H](O)[C@H](O)C(C)(C)O)[C@@H]1CC[C@]2(C)C3=CCC(C(C)(C)C(=O)O)[C@](C)(CC(=O)O)C3CC[C@@]12C	substrate cleavage / fluorescence	38.2 µM
CC[C@H](C)[C@H](NC(=O)[C@@H](NC(=O)[C@H](Cc1ccccc1)NC(C)=O)[C@@H](C)CC)[C@H](O)[C@@H](O)[C@H](CC1CCCCC1)NC(=O)[C@H](CCC(=O)O)NC(=O)[C@H](Cc1ccccc1)NC(C)=O	substrate cleavage	0.4 µM
CC(C)(CO)NC(=O)[C@@H]1CCCN1C(=O)[C@@H](O)[C@H](Cc1ccccc1)NC(=O)[C@H](CC(N)=O)NC(=O)OCc1ccccc1	-	>0.05 µM
CC[C@H](C)[C@H](NC(=O)OC(C)(C)C)C(=O)N[C@@H]1CC[C@H](CC(=O)N[C@H](C(=O)OC)C(C)C)[C@H]1O	absorbance	>10 µM
COC(=O)[C@]12CCC(C)(C)CC1C1=CCC3[C@@]4(C)CC/C(=N\OC(=O)CCCCC(=O)O)C(C)(C)C4CC[C@@]3(C)[C@]1(C)CC2	HPLC	4 µM
CC(=O)N[C@@H](Cc1ccccc1)C(=O)N[C@@H](CCC(=O)O)C(=O)N[C@@H](Cc1ccccc1)[C@H](O)[C@@H](O)[C@H](Cc1ccccc1)NC(=O)[C@@H](NC(C)=O)C(C)C	substrate cleavage	0.13 µM
CC1CCC2C(C)(C)C(O)CCC2(C)C12Cc1c(cc3c(c1O)CN(CCCCC(=O)O)C3=O)O2	substrate cleavage / HPLC	39 µM
CC(C)(C)NC(=O)[C@@H]1CCCN1C(=O)[C@@H](O)[C@H](CC1CCCCC1)NC(=O)[C@H](CS(C)(=O)=O)NC(=O)OCc1cccc2ccccc12	-	<5 µM
COC(=O)[C@]12CCC(C)(C)C[C@H]1C1=CC[C@@H]3[C@@]4(C)CC[C@@H](NC(=O)CCCCC(=O)OC[C@H]5O[C@@H](n6cc(C)c(=O)[nH]c6=O)C[C@@H]5N=[N+]=[N-])C(C)(C)[C@@H]4CC[C@@]3(C)[C@]1(C)CC2	HPLC	8 µM
CC(C[C@@H](OC(C)(C)C)[C@H](O)C(C)(C)O)[C@@H]1CC[C@]2(C)C3=CCC4C(C)(C)C(=O)C(O)=C[C@]4(C)C3CC[C@@]12C	substrate cleavage / fluorescence	>100 µM
CC(C)c1nc(COC(=O)N[C@H](C(=O)N[C@@H](Cc2ccccc2)[C@H](O)CN2CCN(Cc3ccc(O)cc3)C[C@H]2C(=O)NC(C)(C)C)C(C)C)cs1	substrate cleavage	<0.0005 µM
CO[C@@H]([C@@H](CC(C)[C@@H]1CC[C@]2(C)C3=CCC4C(C)(C)C(=O)CC[C@]4(C)C3CC[C@@]12C)OC(C)(C)C)C(C)(C)O	substrate cleavage / fluorescence	>100 µM
CC(C)[C@H](NC(=O)[C@@H](NC(=O)[C@@H]1CCCN1C(=O)[C@@H](O)[C@H](Cc1ccccc1)NC(=O)[C@H](CC(N)=O)NC(=O)CCc1ccccc1)C(C)C)C(N)=O	-	<5 µM
CC(C)CN(C[C@@H](O)[C@H](Cc1ccccc1)NC(=O)[C@@H](NC(=O)N(C)Cc1csc(C(C)C)n1)C(C)C)C(=O)NC(C)(C)C	substrate cleavage	<1 µM
CCOC(=O)[C@]12CCC(C)(C)CC1C1=CCC3[C@@]4(C)CC[C@H](OC(=O)CCC(=O)O)[C@@](C)(CO[Si](C)(C)C(C)(C)C)C4CC[C@@]3(C)[C@]1(C)CC2	substrate cleavage / fluorescence	46.1 µM
CC1(C)CC[C@]2(C(=O)OCc3ccccc3)CC[C@]3(C)C(=CC[C@@H]4[C@@]5(C)C[C@@H](O)[C@H](O)C(C)(C)[C@@H]5CC[C@]43C)[C@@H]2C1	FRET	>1200 µg/mL
CC(C)c1nc(COC(=O)N[C@H](C(=O)N[C@@H](Cc2ccccc2)[C@H](O)CN2CCN(Cc3cccc(O)c3)C[C@H]2C(=O)NC(C)(C)C)C(C)C)cs1	substrate cleavage	<0.0005 µM
O=C(N[C@@H](Cc1ccccc1)[C@@H](O)[C@H](O)[C@H](Cc1ccccc1)NC(=O)c1cc(=O)c2ccccc2o1)c1cc(=O)c2ccccc2o1	substrate cleavage	90 µM
CC(C)[C@H](NC(=O)OCc1cncs1)C(=O)N[C@@H](Cc1ccccc1)[C@H](O)CN1CCN(Cc2ccccc2)C[C@H]1C(=O)NC(C)(C)C	substrate cleavage	<1 µM
C=C(C)[C@@H]1CC[C@@]2(C)C1C1CCC3[C@@](C)(CC(=O)O)C(C(C)(C)C(=O)O)CC[C@@]3(C)[C@]1(C)C[C@@H]2O	substrate cleavage / fluorescence	52.2 µM

Again, the opening 8 rows:

{"smiles": "C=CCc1ccc(O)c(-c2ccc(OC)c(CC=C)c2)c1", "method": "FRET", "result": "1000 µM"}
{"smiles": "COC(=O)[C@H](CC(C)C)NC(=O)C[C@@H]1CC[C@@H](O)[C@@H]1NC(=O)[C@H](Cc1ccccc1)NC(=O)OC(C)(C)C", "method": "absorbance", "result": "20 µM"}
{"smiles": "CCOC(=O)[C@]12CCC(C)(C)CC1C1=CCC3[C@@]4(C)CC[C@H](OC(=O)CC(C)(C)C(=O)O)[C@@](C)(COC(=O)CC(C)(C)C(=O)O)C4CC[C@@]3(C)[C@]1(C)CC2", "method": "substrate cleavage / fluorescence", "result": "17.2 µM"}
{"smiles": "COc1ccc2c(c1)OC1(CCN2)CCN(Cc2ccccc2)CC1", "method": "absorbance", "result": ">10 µM"}
{"smiles": "CC1CCC2C(C)(C)C(O)CCC2(C)C12Cc1c(cc3c(c1O)C(=O)NC3=O)O2", "method": "substrate cleavage / HPLC", "result": "375 µM"}
{"smiles": "COc1ccc2c(c1)OC1(CCN(Cc3ccccc3)CC1)C/C2=N\\O", "method": "absorbance", "result": ">10 µM"}
{"smiles": "C[C@@H](O)[C@H](NC(=O)c1cc(=O)c2ccccc2[nH]1)C(=O)N[C@@H](Cc1ccccc1)[C@H](O)[C@@H](O)[C@H](Cc1ccccc1)NC(=O)COc1ccccc1", "method": "substrate cleavage", "result": "0.0032 µM"}
{"smiles": "C=CCc1cc(-c2cc(CC(O)CO)ccc2O)ccc1O", "method": "FRET", "result": "1000 µM"}

Blank or dashed fields: not listed here. ICn: concentration for n% inhibition.